Results published in patent US6143311A, “Iodopropargyl derivatives and antimicrobial agents comprising them as an active ingredient” (Nagase & Company, Ltd., priority 1997, dated 2000).

Assay: Sensing test of smell (thirteen examiners)
Conditions: average score of thirteen examiners; for Smell magnitude indication: scale 0 not sensed to 5 extremely strongly sensed, control IF-1000 score set as 5; for Pleasant/unpleasant smell indication: scale +3 pleasant to -3 unpleasant, control IF-1000 score set as -3

SMILES | Smell magnitude indication | Pleasant/unpleasant smell indication
COc1ccccc1OCOCC#CI [Derivative III-c, 1-[[(3-Iodo-2-propynyl)oxy]methoxy]-2-methoxybenzene] | 1.0 | +0.2
CCOc1ccccc1OC(C)OCC#CI (centres unmarked) [Derivative III-h, 1-Ethoxy-2-[1-[(3-iodo-2-propynyl)oxy]ethoxy]benzene] | 2.9 | -1.2
COc1ccc(OC(C)OCC#CI)cc1 (centres unmarked) [Derivative III-e, 1-[1-[(3-Iodo-2-propynyl)oxy]ethoxy]-4-methoxybenzene] | 1.2 | -0.3
CCOc1ccc(OC(C)OCC#CI)cc1 (centres unmarked) [Derivative III-f, 1-Ethoxy-4-[1-[(3-Iodo-2-propynyl)oxy]ethoxy]benzene] | 2.8 | -0.6
CCOc1ccc(OCOCC#CI)cc1 [Derivative III-b, 1-Ethoxy-4-[[(3-iodo-2-propynyl)oxy]methoxy]benzene] | 1.1 | -0.1
COc1ccc(OCOCC#CI)cc1 [Derivative III-a, 1-[[(3-Iodo-2-propynyl)oxy]methoxy]-4-methoxybenzene] | 1.5 | -0.5
N#Cc1ccc(OCOCC#CI)cc1 [Derivative III-i, 1-Cyano-4-[[(3-iodo-2-propynyl)oxy]methoxy]benzene] | 2.0 | -0.8
CCOc1ccccc1OCOCC#CI [Derivative III-d, 1-Ethoxy-2-[[(3-iodo-2-propynyl)oxy]methoxy]benzene] | 1.1 | -0.2
Clc1ccc(OCOCC#CI)cc1 [IF-1000, 1-Chloro-4-[[(3-iodo-2-propynyl)oxy]methoxy]benzene, reference compound] | 5 | -3
COc1ccccc1OC(C)OCC#CI (centres unmarked) [Derivative III-g, 1-[1-[(3-Iodo-2-propynyl)oxy]ethoxy]-2-methoxybenzene] | 2.9 | -0.2
